Results of unrelated studies side by side (data: NIAID ChemDB).

Common to all: tests in culture; species: HIV-1; cells: PBMC; measure: EC50

Blank or dashed fields: not listed here. Lines come from different laboratories, so protocols vary. ECn is the concentration giving n% inhibition of infection, replication or growth.

SMILES,strain or isolate,mutations,method,conditions,result
Nc1nc2c(ncn2[C@H]2C=C[C@@H](CO)C2)c(=O)[nH]1,LAI,-,RT activity,-,0.08 µM
CNC(=O)[C@H](Cc1c[nH]c2ccccc12)NC(=O)OC[C@H]1O[C@@H](n2cc(C)c(=O)[nH]c2=O)C[C@@H]1N=[N+]=[N-],LAI,-,XTT,-,2.2 µM
Nc1ncnc2c1ncn2[C@H]1CC[C@@H](CO)O1,-,-,-,-,0.09 µM
C=C(C)[C@]12C[C@@H](COc3ccccc3)[C@@]34OC5(OC1[C@@H]3[C@@H]1O[C@]1(CO)[C@@H](O)[C@]1(O)[C@@H](Oc3ccccc3)[C@@H](C)[C@H]([C@H](C)CCCCC[C@@H]5O)[C@]14C)O2,JR-CSF,-,p24 / ELISA,-,0.0000205 µM
Nc1nc(=O)n([C@H]2CC[C@@H](CO)O2)cc1F,LAI,-,RT activity,-,0.019 µM
CCNc1cccnc1N1CCN(C(=O)c2cc3cc(OC)ccc3[nH]2)CC1,BaL,RT-P236L,p24,-,32 µM
CCC(=O)c1ccc(F)c([C@@H]2C[C@@H]2NC(=O)Nc2ccc(C#N)cn2)c1O,92BR014,ZA-resistant mutant,absorbance,-,0.0002 µM
Cc1ccnc2c1NC(=O)c1cccnc1N2C1CC1,Subtype B isolate,-,p24,-,0.03 µM
CNc1ccc(Cl)cc1S(=O)(=O)c1ccccc1[N+](=O)[O-],ROJO,-,XTT,-,0.1 µM
CC(C)[C@H](NC(=O)c1ccc2ccccc2n1)C(=O)N[C@@H](Cc1ccccc1)[C@H](O)CN1CC[C@@H](OCc2ccncc2)C[C@H]1C(=O)NC(C)(C)C,Wg3523,-,p24,-,0.024 µM
CC(C)CN(C[C@@H](O)[C@H](Cc1ccccc1)NC(=O)[C@@H](NC(=O)CNCc1cccc(F)c1)C(C)(C)C)S(=O)(=O)c1ccc(N)cc1,NL4-3,-,p24,-,<0.02 µM
Nc1c(S(=O)(=O)[O-])cc2c3c(cc(S(=O)(=O)[O-])cc13)C(=O)N(NC(=O)N/N=C\c1cccc(C=O)c1)C2=O.[Na+].[Na+],LAV,-,trypan blue,-,22.8 µM
CC(C)CN(C[C@@H](O)[C@H](Cc1ccc(F)cc1)NC(=O)O[C@H]1CCO[C@H]2OCC[C@H]21)S(=O)(=O)c1ccc2nc(NC(C)C)sc2c1,ERS104pre,L63P,p24 / luminescence,-,0.0025 µM
CCCCN1C(=O)[C@@H]([C@H](O)C2CCCCC2)NC(=O)C12CCN(Cc1ccc(Oc3ccc(C(=O)O)cc3)cc1)CC2,NL4-3 X4,-,p24,-,>1 µM
COC(=O)N[C@H](C(=O)N[C@@H](Cc1ccccc1)[C@@H](O)CN(Cc1ccc(-c2ccccn2)cc1)NC(=O)[C@@H](NC(=O)OC)C(C)(C)C)C(C)(C)C,BaL,-,p24 / luminescence,-,0.0037 µM
Cc1cn([C@H]2C[C@H](N=[N+]=[N-])[C@@H](CO)O2)c(=O)[nH]c1=O,Subtype B isolate,-,p24,-,0.0015 µM
COC(=O)[C@@H](Cc1c[nH]c2ccccc12)NC(=O)OC[C@H]1O[C@@H](n2cc(C)c(=O)[nH]c2=O)C[C@@H]1N=[N+]=[N-],LAI,-,XTT,-,18 µM
Cc1cn([C@H]2C[C@H](N=[N+]=[N-])[C@@H](CO)O2)c(=O)[nH]c1=O,RTMF(RT-T215Y),RT-T215Y,RT activity,-,0.18 µM
Cc1cccc(C)c1OCC(=O)N[C@@H](Cc1ccccc1)[C@@H](O)C[C@H](Cc1ccccc1)NC(=O)[C@H](C(C)C)N1CCCNC1=O,ERS104pre,-,p24,-,0.03 µM
Cc1cn([C@H]2C[C@H](O)[C@@](C#N)(COP(=O)(O)OP(=O)(O)OP(=O)(O)O)C2)c(=O)[nH]c1=O,-,-,fluorescence,-,2.1 µM
CC(C)(C)OC(=O)N[C@@H](Cc1ccccc1)[C@H](O)CNC[C@@H](O)[C@H](Cc1ccccc1)NC(=O)C(C)(O)C(C)(C)C,IIIB,-,p24,-,0.04 µM
CNC(=O)[C@@H](Cc1ccccc1)NC(=O)OC[C@H]1O[C@@H](n2cc(C)c(=O)[nH]c2=O)C[C@@H]1N=[N+]=[N-],LAI,-,XTT,-,1.8 µM
CCCCCCCCCCCCCCCCCCCCCCC(=O)O[C@@H]1[C@@H](C)[C@@]2(O)[C@@H](C=C(COC(C)=O)C[C@]3(O)C(=O)C(C)=C[C@@H]23)[C@@H]2C(C)(C)[C@]12O,KM018,-,p24 / ELISA,-,0.106 µM
CCc1nc2ccccn2c1C(=O)c1cccs1,IIIB,-,RT activity,-,0.7 µM
CO[C@H]1CCCC[C@@H](c2ccccc2)OC(=O)C(C)[C@@]2(O)OC([C@@H](C)[C@H](O)[C@H]2OC)[C@@H](C)/C=C/[C@H]1OC,BaL,-,luciferase,-,1.59 µM
CNC(=O)[C@@H](Cc1c[nH]c2ccccc12)NC(=O)OC[C@H]1O[C@@H](n2cc(C)c(=O)[nH]c2=O)C[C@@H]1N=[N+]=[N-],LAI,-,XTT,-,4 µM
CC(C)Nc1cccnc1N1CCN(C(=O)c2cc3cc(NS(C)(=O)=O)ccc3[nH]2)CC1,BaL,RT-P236L,p24,-,7.3 µM
Cc1cc(C#N)cc(C)c1Oc1nc(Nc2ccc(C#N)cc2)nc(N)c1Br,93TH051,-,absorbance,-,0.0008 µM
Nc1ccn([C@H]2CC[C@@H](CO)O2)c(=O)n1,LAI,-,-,-,0.00064 µM
CC(C)(C)NC(=O)[C@@H]1C[C@@H]2CCCC[C@@H]2CN1C[C@@H](O)[C@H](Cc1ccccc1)NC(=O)[C@H](CC(N)=O)NC(=O)c1ccc2ccccc2n1,BR60 (PR L10I K20R M36I/V P63L/S L90M),PR-L10I K20R M36I/V P63L/S L90M,p24,-,0.004 µM
CC(C)OC(=O)OCOP(=O)(CO[C@H](C)Cn1cnc2c(N)ncnc21)OCOC(=O)OC(C)C,LAI,-,RT activity,-,0.01 µM
CC(C)(C)NC(=O)[C@@H]1C[C@@H]2CCCC[C@@H]2CN1C[C@@H](O)[C@H](Cc1ccccc1)NC(=O)[C@H](CC(N)=O)NC(=O)c1ccc2ccccc2n1,HXB2,PR-G48V L90M,p24,-,0.12 µM
CCN(C(=O)OCc1ccccc1)C1CCN(CC[C@H](CN(C)S(=O)(=O)c2ccccc2)c2cccc(Cl)c2)CC1,BaL,-,p24,-,<0.013 µM
Nc1nc2c(ncn2[C@H]2CO[C@@H](CO)O2)c(=O)[nH]1,LAI,-,RT activity,-,0.3 µM
Cc1cc(SC2=C(O)C[C@@](CCc3ccc(N)cc3)(C(C)C)OC2=O)c(C(C)(C)C)cc1CO,Resistant isolates,-,-,-,0.2 µM
Nc1ccn([C@H]2CC[C@@H](CO)O2)c(=O)n1,LAV,-,-,-,0.011 µM
NNC(=O)NN1C(=O)c2cc(S(=O)(=O)[O-])cc3c(N)c(S(=O)(=O)[O-])cc(c23)C1=O,LAV,-,trypan blue,-,>100 µM
CCO/N=C(\c1ccc(Br)cc1)C1CCN(C2(C)CCN(C(=O)c3c(C)cc[n+]([O-])c3C)CC2)CC1,JR-FL R5,-,p24,-,0.002 µM
CC(C)CN(C[C@@H](O)[C@H](Cc1ccccc1)NC(=O)O[C@H]1CCOC1)S(=O)(=O)c1ccc(N)cc1,-,-,p24,"clinical isolate, multidrug-resistant",0.5 µM
O=c1[nH]cnc2c1ncn2[C@H]1CC[C@@H](CO)O1,9281 CLADE A CLADE A,-,p24,-,9.63 µM
Cc1cccc(C)c1OCC(=O)N[C@@H](Cc1ccccc1)[C@@H](O)C[C@H](Cc1ccccc1)NC(=O)[C@H](C(C)C)N1CCCNC1=O,HXB2,PR-L10R M46I L63P V82T I84V,p24,-,<0.33 µM
Cc1cn([C@H]2C[C@H](N=[N+]=[N-])[C@@H](CO)O2)c(=O)[nH]c1=O,LAI,-,RT activity,-,0.004 µM
Nc1ncnc2c1ncn2[C@@H]1CC[C@H](CO)O1,-,-,-,-,>100 µM

The first 4 rows once more:

SMILES	strain or isolate	mutations	method	conditions	result
Nc1nc2c(ncn2[C@H]2C=C[C@@H](CO)C2)c(=O)[nH]1	LAI	-	RT activity	-	0.08 µM
CNC(=O)[C@H](Cc1c[nH]c2ccccc12)NC(=O)OC[C@H]1O[C@@H](n2cc(C)c(=O)[nH]c2=O)C[C@@H]1N=[N+]=[N-]	LAI	-	XTT	-	2.2 µM
Nc1ncnc2c1ncn2[C@H]1CC[C@@H](CO)O1	-	-	-	-	0.09 µM
C=C(C)[C@]12C[C@@H](COc3ccccc3)[C@@]34OC5(OC1[C@@H]3[C@@H]1O[C@]1(CO)[C@@H](O)[C@]1(O)[C@@H](Oc3ccccc3)[C@@H](C)[C@H]([C@H](C)CCCCC[C@@H]5O)[C@]14C)O2	JR-CSF	-	p24 / ELISA	-	0.0000205 µM